Experimental data published in article PMC8411975, “Frag4Lead: growing crystallographic fragment hits by catalog using fragment-guided template docking” (Acta Crystallographica. Section D, Structural Biology, 2021).

Protein sequences, listed by entry. Tags and fused reporters are not part of them. Residues count along the entry.
UniProt P11838, 90-419 limits assumed: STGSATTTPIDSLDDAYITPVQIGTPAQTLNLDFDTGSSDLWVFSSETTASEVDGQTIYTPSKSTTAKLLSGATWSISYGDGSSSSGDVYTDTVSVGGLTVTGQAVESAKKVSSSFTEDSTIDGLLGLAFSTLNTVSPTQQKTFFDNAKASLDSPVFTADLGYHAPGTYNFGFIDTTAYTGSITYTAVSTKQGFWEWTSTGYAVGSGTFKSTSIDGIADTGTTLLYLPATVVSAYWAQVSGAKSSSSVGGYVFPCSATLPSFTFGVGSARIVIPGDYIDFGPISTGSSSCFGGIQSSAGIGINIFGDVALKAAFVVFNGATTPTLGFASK

Molecular target: endothiapepsin (EP) (Cryphonectria parasitica, UniProt P11838)
Assay: Isothermal titration calorimetry (direct or SAP114-displacement titration) against EP
Assay type: binding
Conditions: from ITC Kd; tested form: HCl

SMILES: NC1=NC(=NNc2ccccc2)c2ccccc21
- LE (ligand efficiency): 0.39 kcal mol^−1 per atom
